Assays:
[1] = system: C. elegans; assay: Lethality assays, dose-dependent, wild-type L4; assay type: in vivo, Caenorhabditis elegans; conditions: lethal dose curve
Protocol: Dose-dependent lethality was quantified by exposing 40 L4s to DII (0–1000 μM) dissolved in solid medium for 8 and 24 h at 20°C. For survival to 96 h of DII exposure the temperature used was 13°C to avoid food depletion.

[2] = system: C. elegans; assay: Acute paralysis assays; assay type: in vivo, Caenorhabditis elegans; conditions: for Hill-slope acute paralysis curve: 10 min, Fig 4B
Protocol: Acute paralysis assays were carried out in microtiter plates containing the drug dissolved in M9 buffer. […] Each drug concentration was tested in two wells (containing 30 animals each) within a single experiment. […] The experiment was independently repeated at least three times.

Row | SMILES | Hill-slope ([1]; 8 h of exposure) | Hill-slope ([1]; 24 h of exposure) | Hill slope ([1]; 96 h of exposure) | Hill-slope acute paralysis curve [2] | Hill-slope levamisole paralysis curve ([2]; Fig 4E black circle) | Hill-slope levamisole paralysis curve ([2]; Fig 4E dark pink triangle up) | Hill-slope levamisole paralysis curve ([2]; Fig 4E light pink triangle down) | Hill slope levamisole paralysis curve ([2]; S5D Fig black circle) | Hill slope levamisole paralysis curve ([2]; S5D Fig pink triangle)
1 | CC(C)c1cccc(C(C)C)c1-n1ccnc1 [Compound 11] | 4.4 ± 0.9 | 6.7 ± 1.3 | 2.15 ± 0.25 | 1.96 ± 2.31 |  |  |  |  | 
2 | c1ccc([C@H]2CN3CCSC3=N2)cc1 [levamisole] |  |  |  | 2.39 ± 1.37 | 1.78 ± 0.36 | 2.65 ± 0.81 | 2.36 ± 0.61 | 1.23 ± 0.26 | 1.38 ± 0.54
